## Potato spindle tuber viroid, stem 15: variant abundance in plants

Source: Wu et al. 2024 (doi:10.1371/journal.ppat.1012142), supplementary data.

PSTVd intermediate strain, stem 15: wild type CUGGAGCGAUCGCUUCGG, pool pattern CUGGAGCGAUNGNNUNNG; upper and lower strand joined, each 5' to 3', the first 9 letters being the upper strand.

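Three N. benthamiana plants were inoculated with the whole mutant pool. Samples came from the inoculated region at 5 days, the leaf margin at 10 and upper systemic leaves at 12.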

Numbers give reads per thousand; 0 = not seen among the reads, higher = more abundant. Each value is the mean of three plants. "Pool" is the share in the plasmid pool used as inoculum, on the same scale. The inoculated region was read from the minus strand, the other sites from the plus strand. IR is the inoculated region, LM the leaf margin, Sys the systemic leaves. With 36,693-63,082 reads a sample, very low values are single reads. Wild type was 10.2 per thousand in the pool and the most common sequence in every sample (inoculated region 285, 367, 312; leaf margin 785, 865, 782; systemic leaves 854, 898, 915). The authors trace changes outside the varied positions to PCR and sequencing errors or to mutation in the plant; presence does not show that a variant is infectious alone.

* CUGGAGCGAUGGUUUUGG (pool 0.776) -> IR 0.255; LM 0.0334; Sys 0
* CUGGAGCGAUUGGCUAGG (pool 1.05) -> IR 0.665; LM 0.0276; Sys 0
* CUGGAGCGAUAGAGUGCG (pool 0.840) -> IR 0.274; LM 0.0485; Sys 0
* CUGGAGCGAUUGUGUUAG (pool 1.08) -> IR 1.37; LM 0.636; Sys 0.671
* CUGGAGCGAUUGUAUGCG (pool 0.743) -> IR 0.287; LM 0.0526; Sys 0
* CUGGAGCGAUAGAGUAAG (pool 1.02) -> IR 0.240; LM 0.0207; Sys 0
* CUGGAGCGAUUGUGUGGG (pool 0.954) -> IR 0.347; LM 0.0235; Sys 0
* CUGGAGCGAUAGCAUACG (pool 0.760) -> IR 0.268; LM 0.0350; Sys 0
* CUGGAGCGAUCGAAUCGG (pool 1.78) -> IR 1.58; LM 0.00908; Sys 0.238
* CUGGAGCGAUAGCUUCCG (pool 1.05) -> IR 0.282; LM 0.0265; Sys 0
* CUGGAGCGAUAGUAUGUG (pool 0.986) -> IR 0.356; LM 0.0604; Sys 0
* CUGGAGCGAUAGUUUUGG (pool 2.13) -> IR 2.33; LM 0.0479; Sys 0
* CUGGAGCGAUUGAAUACG (pool 0.808) -> IR 0.328; LM 0.0235; Sys 0
* CUGGAGCGAUCGGGUAUG (pool 0.711) -> IR 0.294; LM 0.0329; Sys 0
* CUGGAGCGAUAGGAUAAG (pool 0.808) -> IR 0.309; LM 0.0312; Sys 0
* CUGGAGCGAUGGAAUCAG (pool 0.889) -> IR 0.364; LM 0.0594; Sys 0
* CUGGAGCGAUUGGCUGUG (pool 1.07) -> IR 0.576; LM 0.0372; Sys 0
* CUGGAGCGAUUGGGUCUG (pool 0.889) -> IR 0.287; LM 0.0545; Sys 0
* CUGGAGCGAUUGCAUAAG (pool 0.937) -> IR 0.257; LM 0.0519; Sys 0
* CUGGAGCGAUGGAGUCGG (pool 0.808) -> IR 0.219; LM 0.0434; Sys 0
* CUGGAGCGAUCGAAUUUG (pool 0.695) -> IR 0.302; LM 0.0622; Sys 0
* AUGGAGCGAUGGGGUGGG (pool 0.0162) -> IR 0; LM 0; Sys 0
* CUGGAGCGAUCGCUUCGU (pool 0.129) -> IR 0.344; LM 0.339; Sys 0.344
* CUGGAGCGAUUGGUUACG (pool 0.921) -> IR 0.271; LM 0.0325; Sys 0
* CUGGAGCGAUAGGGUACG (pool 0.792) -> IR 0.274; LM 0.0381; Sys 0
* CUGGAGCGAUCGGCUAAG (pool 0.776) -> IR 0.291; LM 0.0435; Sys 0
* CUGGAGCGAUGGCUUGGG (pool 0.986) -> IR 0.288; LM 0.0410; Sys 0
* CUGGAGCGAUAGAGUUGG (pool 0.824) -> IR 0.280; LM 0.0388; Sys 0
* CUGGAGCGAUAGUAUAUG (pool 0.760) -> IR 0.305; LM 0.0282; Sys 0

The first 2 entries again:

{"sequence": "CUGGAGCGAUGGUUUUGG", "pool": "0.776", "IR": 0.255, "LM": 0.0334, "Sys": 0}
{"sequence": "CUGGAGCGAUUGGCUAGG", "pool": "1.05", "IR": 0.665, "LM": 0.0276, "Sys": 0}